A mixed list of measured activities; the numbers were collected in NIAID ChemDB.

All rows: toxicity to cultured cells; cells: CEM; measure: CC50

Conditions beyond the fields shown may differ between rows. CCn is the concentration with n% toxicity to the cells.

compound	result
Cc1cn([C@@H]2O[C@H](CO[Si](C)(C)C(C)(C)C)[C@@H](O[Si](C)(C)C(C)(C)C)[C@H]2O)c(=O)n(CCO)c1=O	68 µM
CC(C)(C)[Si](C)(C)OC[C@H]1O[C@@H](n2cc(CBr)nn2)[C@H](O[Si](C)(C)C(C)(C)C)C12OS(=O)(=O)C=C2N	>1.3 µM
NC(CCSSCCC(N)P(=O)(O)O)P(=O)(O)O	>200 µM
CC(=O)c1ccc(C)cc1NC(C(N)=O)c1c(Cl)cccc1Cl	127 µM
Cn1cnc2ncn([C@@H]3O[C@H](CO[Si](C)(C)C(C)(C)C)C4(OS(=O)(=O)C=C4N)[C@H]3O[Si](C)(C)C(C)(C)C)c2c1=O	15 µg/mL
Cc1cn([C@@H]2O[C@H](CO[Si](C)(C)C(C)(C)C)[C@@H](O)[C@H]2O[Si](C)(C)C(C)(C)C)c(=O)n(CC(=O)ON)c1=O	4.7 µM
Cc1cn([C@@H]2O[C@H](CO[Si](C)(C)C(C)(C)C)C3(OS(=O)(=O)C=C3N)[C@H]2O[Si](C)(C)C(C)(C)C)nn1	>1.4 µM
Nc1ncnc2c1ncn2[C@H]1C=C[C@@H](CO)O1	95 µM
Cc1c(N)nc(N)nc1OCCOCP(=O)(O)O	4.7 µM
CCOC(=O)c1cn([C@@H]2O[C@H](CO[Si](C)(C)C(C)(C)C)C3(OS(=O)(=O)C=C3N)[C@H]2O[Si](C)(C)C(C)(C)C)nn1	>0.54 µM
CCCCCCCCCCCCCC(=O)OP(=O)(O)OP(=O)(O)OP(=O)(O)OC[C@@H]1C=C[C@H](n2cc(C)c(=O)[nH]c2=O)O1	>20 µM
CCc1cn([C@@H]2O[C@H](CO[Si](C)(C)C(C)(C)C)[C@@H](O)[C@H]2O[Si](C)(C)C(C)(C)C)c(=O)n(CC(=O)O)c1=O	20 µM
CO[C@H]1/C=C/O[C@@]2(C)Oc3c(C)c(O)c4c(O)c(c(/C=N/N5C(C)CN(Cc6ccc([N+](=O)[O-])cc6)CC5C)c(O)c4c3C2=O)NC(=O)/C(C)=C\C=C\[C@H](C)[C@H](O)[C@@H](C)[C@@H](O)[C@@H](C)[C@H](OC(C)=O)[C@@H]1C	>7.7 µM
COC(=O)[C@H](C)NP(=O)(OC[C@@H]1C=C[C@H](n2cnc3c(N)ncnc32)O1)Oc1ccccc1	3.75 µM
CC(C)(C)[Si](C)(C)OC[C@H]1O[C@@H](n2cnc3nc[nH]c(=O)c32)[C@H](O[Si](C)(C)C(C)(C)C)C12OS(=O)(=O)C=C2N	8.3 µg/mL
CC(C)(C)[Si](C)(C)OC[C@@H]1CC[C@H](n2cnc3c(=O)n(CC(=O)OCc4ccccc4)cnc32)O1	32.5 µM
Cc1cn([C@@H]2O[C@H](CO[Si](C)(C)C(C)(C)C)C3(OS(=O)(=O)C=C3N)[C@H]2O[Si](C)(C)C(C)(C)C)c(=O)n(CC(=O)N[C@@H](C)C(=O)O)c1=O	>250 µM
COC(=O)Cn1c(=O)c(C)cn([C@H]2C[C@H](N=[N+]=[N-])[C@@H](CO[Si](C)(C)C(C)(C)C)O2)c1=O	10 µM
Nc1ncnc2c1ncn2[C@H]1CC[C@@H](CO)O1	>250 µM
CCCCCCCCCCCCCCCCCCOC[C@@H](O)COP(=O)(O)C(=O)O	114 µM
COCCCCCCCCCCCC(=O)OP(=O)(O)OP(=O)(O)OC[C@H]1O[C@@H](n2cc(C)c(=O)[nH]c2=O)C[C@@H]1N=[N+]=[N-]	>50 µM
CN(C)[C@@H]1C(=O)C(C(=O)NCNc2nc3n[nH]nc3c(=O)[nH]2)=C(O)[C@@]2(O)C(=O)C3=C(O)c4c(O)cccc4[C@@](C)(O)[C@H]3C[C@@H]12	>100 µM
Cc1cn([C@@H]2O[C@H](COC(=O)c3ccccc3)[C@@H](O)[C@H]2OC(=O)c2ccccc2)c(=O)n(CC(=O)O)c1=O	194 µM
CC(=O)O[C@H](C)[C@@H]1C2=C(C(=O)C[C@]1(C)O)C(=O)c1c(ccc(-c3ccc4c(c3O)C(=O)C3=C(C4=O)[C@@H]([C@@H](C)OC(C)=O)[C@@](C)(O)CC3=O)c1O)C2=O	>0.3 µM
CN(C)c1ncnc2c1ncn2[C@@H]1O[C@H](CO[Si](C)(C)C(C)(C)C)C2(OS(=O)(=O)C=C2N)[C@H]1O[Si](C)(C)C(C)(C)C	6.1 µg/mL
O=C(C[C@@H](O)CCc1ccc(O)c(O)c1)O[C@H]1Cc2c(O)cc(O)cc2O[C@@H]1c1ccc(O)c(O)c1	>21.1 µM
CC(C)(C)[Si](C)(C)OC[C@H]1O[C@@H](n2nncc2CBr)[C@H](O[Si](C)(C)C(C)(C)C)C12OS(=O)(=O)C=C2N	>1.3 µM
Nc1ncnc2c1ncn2CCOCP(=O)(O)O	56 µM
Cc1cn([C@@H]2O[C@H](CO[Si](C)(C)C(C)(C)C)C3(OS(=O)(=O)C=C3N)[C@H]2O[Si](C)(C)C(C)(C)C)c(=O)n(CC(=O)N[C@H](C(=O)OCc2ccccc2)C(C)C)c1=O	≥250 µM
CC(C)=CCN1Cc2c(F)ccc3[nH]c(=S)n(c23)C[C@@H]1C	>81.9 µM
COC(=O)c1nnn([C@@H]2O[C@H](CO[Si](C)(C)C(C)(C)C)C3(OS(=O)(=O)C=C3N)[C@H]2O[Si](C)(C)C(C)(C)C)c1C(=O)OC	>0.53 µM
CN(C)[C@@H]1C(=O)C(C(N)=O)=C(O)[C@@]2(O)C(=O)C3=C(O)c4c(O)cccc4[C@@](C)(O)[C@H]3C[C@@H]12	>40.5 µM
Cc1cn([C@@H]2O[C@H](CO[Si](C)(C)C(C)(C)C)C3(OS(=O)(=O)C=C3N)[C@H]2O[Si](C)(C)C(C)(C)C)c(=O)n(CC(=O)N[C@@H](CC(=O)O)C(=O)O)c1=O	>250 µM
CN(C)C1C(=O)C(C(=O)NCNC(CO)(CO)CO)=C(O)C2(O)C(=O)C3=C(O)c4c(O)cccc4C(C)(O)C3CC12	>133 µM
CC(C)(C)[Si](C)(C)OC[C@H]1O[C@@H](n2ccnn2)[C@H](O[Si](C)(C)C(C)(C)C)C12OS(=O)(=O)C=C2N	>3.4 µM
Nc1nc(N)c(Cc2c(N)nc(N)nc2OCCOCP(=O)(O)O)c(OCCOCP(=O)(O)O)n1	200 µM
CCCCCCCCCCCCCC(=O)OP(=O)(O)OC[C@@H]1C=C[C@H](n2cc(C)c(=O)[nH]c2=O)O1	>20 µM
Cc1cn([C@H]2C[C@H](N=[N+]=[N-])[C@@H](CO)O2)c(=O)[nH]c1=O	>100 µM
O=C(O)P(=O)(O)O	800 µM
CN(C)C1C(=O)C(C(=O)NCNC2C(=O)N3C2SC(C)(C)C3C(=O)O)=C(O)C2(O)C(=O)C3=C(O)c4c(O)cccc4C(C)(O)C3CC12	>268 µM
COCCCCCCCCCCCC(=O)OP(=O)(O)OP(=O)(O)OP(=O)(O)OC[C@H]1O[C@@H](n2cc(C)c(=O)[nH]c2=O)C[C@@H]1N=[N+]=[N-]	>50 µM

For reference, 2 entries again:

compound	result
Cc1cn([C@@H]2O[C@H](CO[Si](C)(C)C(C)(C)C)[C@@H](O)[C@H]2O[Si](C)(C)C(C)(C)C)c(=O)n(CC(=O)ON)c1=O	4.7 µM
CC(=O)c1ccc(C)cc1NC(C(N)=O)c1c(Cl)cccc1Cl	127 µM